What was measured:
[1] = target: SARS-CoV RBD (SARS-CoV) (UniProt P59594); experiment: ELISA
[2] = target: WIV1 RBD (UniProt P59594); experiment: ELISA

Row | Substance | EC50 [1] [µg/mL] | EC50 [2] [µg/mL]
1 | C102 IgG | > 10 | > 10
2 | C144 IgG | > 10 | > 10
